Publication PMC7114261 (Antiviral Research, 2006)

Settings: BALB/c, mouse, in vivo, ip, 75 mg/kg

NC(=O)c1ncn([C@@H]2O[C@H](CO)[C@@H](O)[C@H]2O)n1 [Ribavirin, ribavirin]
Deaths in group: d One mouse died on day 2, four mice died on day 5, and two mice died on day 6.
